Anti-infective test results gathered from many reports (values: NIAID ChemDB through PubChem).

Common to all: tests in culture; agent: HIV-1; method: p24 / ELISA / antigen; read-out: EC50

Neighbouring rows are from separate reports. ECn is the concentration giving n% inhibition of infection, replication or growth. Blank or dashed fields: not listed here.

SMILES	cell line	strain or isolate	value
COCP(=O)(OC[C@@H]1O[C@H](n2cc(C)c(=O)[nH]c2=O)C[C@H]1N=[N+]=[N-])OC[C@H]1O[C@@H](n2cc(C)c(=O)[nH]c2=O)C[C@@H]1N=[N+]=[N-]	CEM-SS	BRU	0.68 µM
O=C(CSc1ccccn1)Nc1cc(F)ccc1F	MT-4	IIIB	>100 µM
Cc1ccnc2c1NC(=O)c1cccnc1N2C1CC1	HuT-78	IIIB	>7.5 µM
Cc1cn([C@H]2C[C@H](N=[N+]=[N-])[C@@H](CO)O2)c(=O)[nH]c1=O	MT-4	TKV-4046	0.037 µM
CC(C)CCC[C@@H](C)[C@H]1CCC2C3CCC4C[C@@H](O[C@@H]5O[C@H](COS(=O)(=O)[O-])[C@@H](O[C@H]6O[C@H](COS(=O)(=O)[O-])[C@@H](O[C@H]7O[C@H](COS(=O)(=O)[O-])[C@@H](O[C@H]8O[C@H](COS(=O)(=O)[O-])[C@@H](OS(=O)(=O)[O-])[C@H](OS(=O)(=O)[O-])[C@H]8OS(=O)(=O)[O-])[C@H](OS(=O)(=O)[O-])[C@H]7OS(=O)(=O)[O-])[C@H](OS(=O)(=O)[O-])[C@H]6OS(=O)(=O)[O-])[C@H](OS(=O)(=O)[O-])[C@H]5OS(=O)(=O)[O-])CC[C@]4(C)C3CC[C@@]21C	H9	IIIB	14 µg/mL
Cc1cn([C@@H]2C[C@@H](N=[N+]=[N-])[C@H](COP(=O)(CI)OC[C@H]3O[C@@H](n4cc(C)c(=O)[nH]c4=O)C[C@@H]3N=[N+]=[N-])O2)c(=O)[nH]c1=O	CEM-SS	BRU	11 µM
c1ccc2c(-c3ccc(-c4ccc(-c5ccc(-c6cccc7ccccc67)s5)c5ccccc45)s3)cccc2c1	C8166	IIIB	11.19 µM
Cc1cn(C2CC(N=[N+]=[N-])C(OP(=O)(O)C(=O)NCCc3ccccc3)O2)c(=O)[nH]c1=O	MT-4	TKV-4046	0.2 µM
C=C(C)[C@]1(O)C[C@@H](C)[C@@]2(O)[C@H]([C@H]1OC(=O)/C=C/C=C/CCCCC)[C@@H]1O[C@]1(CO)[C@@H](O)[C@]1(O)C(=O)C(C)=C[C@H]12	C8166	-	0.05901 µM
O=C(CSc1nc2ccccc2[nH]1)Nc1cc(F)ccc1F	MT-4	IIIB	1.25 µM
C=C(C)[C@]1(O)C[C@@H](C)[C@@]2(O)[C@H]([C@H]1OC(=O)/C=C/C=C/CCCCC)[C@@H]1O[C@]1(CO)[C@@H](O)[C@]1(O)C(=O)C(C)=C[C@H]12	C8166	IIIB	0.445 µM
Cc1cn([C@H]2C[C@H](N=[N+]=[N-])[C@@H](COP(=O)(COc3ccccc3)OC[C@@H]3O[C@H](n4ccc(N)nc4=O)CS3)O2)c(=O)[nH]c1=O	CEM-SS	BRU	0.24 µM
COc1cnc(NC(=O)CSc2ccccn2)[n+](OC)c1	MT-4	IIIB	>100 µM
C/C1=C\[C@@H](C)C/C=C/[C@H]2C=C(CO)[C@@H](C)C3[C@H](Cc4c[nH]c5ccccc45)NC(=O)[C@]32c2ccc([nH]2)C1=O	MT-4	LAI	0.48 µM
CCCCNC(=O)P(=O)(O)OC1OC(n2cc(C)c(=O)[nH]c2=O)CC1N=[N+]=[N-]	MT-4	TKV-4046	0.48 µM
C=C1[C@@H](C)C2[C@H](Cc3c[nH]c4ccccc34)NC(=O)[C@]23c2ccc([nH]2)C(=O)/C(C)=C/[C@@H](C)C/C=C/[C@H]3[C@@H]1O	MT-4	LAI	4.92 µM
CN(C)c1ccc(Nc2c3ccc(NC(=O)CCN4CCCC4)cc3nc3cc(NC(=O)CCN4CCCC4)ccc23)cc1	MT-4	IIIB	2.9 µM
Cc1cn([C@@H]2C[C@@H](N=[N+]=[N-])[C@H](COP(=O)(CN=[N+]=[N-])OC[C@H]3O[C@@H](n4cc(C)c(=O)[nH]c4=O)C[C@@H]3N=[N+]=[N-])O2)c(=O)[nH]c1=O	CEM-SS	BRU	0.18 µM
CC1=C(C)[C@@H](O)[C@@H]2/C=C/C[C@H](C)C[C@@H](C)C(=O)c3ccc([nH]3)[C@]23C(=O)N[C@@H](Cc2c[nH]c4ccccc24)C13	MT-4	LAI	0.25 µM

Again, the opening 2 rows:

SMILES,cell line,strain or isolate,value
COCP(=O)(OC[C@@H]1O[C@H](n2cc(C)c(=O)[nH]c2=O)C[C@H]1N=[N+]=[N-])OC[C@H]1O[C@@H](n2cc(C)c(=O)[nH]c2=O)C[C@@H]1N=[N+]=[N-],CEM-SS,BRU,0.68 µM
O=C(CSc1ccccn1)Nc1cc(F)ccc1F,MT-4,IIIB,>100 µM